PubChem BioAssay AID624099 | ICCB-Longwood – 2012

Assay: 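Knock-downs relieving repression by E2 of an HPV18 LCR luciferase reporter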 (primary screen)
Cells: human C33A cervical carcinoma cells (HPV-negative) stably expressing BPV1 E2 and an HPV18 LCR luciferase reporter
Knock-down reagent: siRNA pool against human genes, 40 nM
Time to read-out: 72 h
Read-out: 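HPV18 LCR reporter light per well, converted to plate-wise z-scores that exclude control wells, and averaged over triplicate plates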
Reading the numbers: mean z-score and z-score: higher = stronger reporter signal, weaker E2 silencing
Hit rule: 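Mean z ≥ 2 together with z ≥ 2 in two or more of the three replicates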
In all, the deposit lists about 21,000 reagents; this is an unselected part. Of all reagents, 497 (2.4%) got an active call. 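Higher z means weaker E2 silencing; only reporter increases were scored, and knock-downs that hurt cell survival may mask genuine repressor factors.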

PURA | mean z-score: -1.75; z-score, replicate A: -1.83; z-score, replicate B: -1.72; z-score, replicate C: -1.7; Outcome: inactive
AIF1L | mean z-score: -0.6; z-score, replicate A: -0.67; z-score, replicate B: -0.41; z-score, replicate C: -0.72; Outcome: inactive
WASH3P | mean z-score: 0.64; z-score, replicate A: 0.66; z-score, replicate B: 0.76; z-score, replicate C: 0.51; Outcome: inactive
SOAT2 | mean z-score: -1.35; z-score, replicate A: -1.4; z-score, replicate B: -1.15; z-score, replicate C: -1.49; Outcome: inactive
UQCRH | mean z-score: 0.87; z-score, replicate A: 1.02; z-score, replicate B: 0.65; z-score, replicate C: 0.94; Outcome: inactive
ITGA11 | mean z-score: -0.28; z-score, replicate A: -0.06; z-score, replicate B: -0.56; z-score, replicate C: -0.23; Outcome: inactive
IRF7 | mean z-score: 0.22; z-score, replicate A: 0.2; z-score, replicate B: 0.3; z-score, replicate C: 0.17; Outcome: inactive
PFKM | mean z-score: -0.15; z-score, replicate A: -0.8; z-score, replicate B: -0.29; z-score, replicate C: 0.64; Outcome: inactive
NMNAT3 | mean z-score: 0.1; z-score, replicate A: 0.45; z-score, replicate B: 0.04; z-score, replicate C: -0.2; Outcome: inactive
ARHGEF26 | mean z-score: -0.82; z-score, replicate A: -0.73; z-score, replicate B: -0.95; z-score, replicate C: -0.76; Outcome: inactive
ALDH3A1 | mean z-score: -0.84; z-score, replicate A: -0.44; z-score, replicate B: -1.3; z-score, replicate C: -0.78; Outcome: inactive
PIGC | mean z-score: -0.16; z-score, replicate A: -0.36; z-score, replicate B: 0.1; z-score, replicate C: -0.21; Outcome: inactive
MOS | mean z-score: 1.47; z-score, replicate A: 1.48; z-score, replicate B: 1.22; z-score, replicate C: 1.72; Outcome: inactive
LOC389071 (retired record) | mean z-score: -1.31; z-score, replicate A: -1.19; z-score, replicate B: -1.33; z-score, replicate C: -1.4; Outcome: inactive
HAS3 | mean z-score: -0.48; z-score, replicate A: -0.59; z-score, replicate B: -0.5; z-score, replicate C: -0.35; Outcome: inactive
ADAMTS13 | mean z-score: 0.41; z-score, replicate A: 0.3; z-score, replicate B: 0.62; z-score, replicate C: 0.32; Outcome: inactive
NHLRC4 | mean z-score: 0.37; z-score, replicate A: 0.38; z-score, replicate B: 0.61; z-score, replicate C: 0.11; Outcome: inactive
SYF2 | mean z-score: -0.72; z-score, replicate A: -0.53; z-score, replicate B: -1.11; z-score, replicate C: -0.52; Outcome: inactive
ROGDI | mean z-score: 0.88; z-score, replicate A: 1.02; z-score, replicate B: 0.47; z-score, replicate C: 1.14; Outcome: inactive
MAPDA | mean z-score: 0.66; z-score, replicate A: 0.78; z-score, replicate B: 0.59; z-score, replicate C: 0.6; Outcome: inactive
ZYX | mean z-score: -0.2; z-score, replicate A: -0.52; z-score, replicate B: -0.1; z-score, replicate C: 0.01; Outcome: inactive

2 entries already listed, ordered by “z-score, replicate B”, highest first.
ROGDI | mean z-score: 0.88; z-score, replicate A: 1.02; z-score, replicate B: 0.47; z-score, replicate C: 1.14; Outcome: inactive
SYF2 | mean z-score: -0.72; z-score, replicate A: -0.53; z-score, replicate B: -1.11; z-score, replicate C: -0.52; Outcome: inactive
